Experimental data: publication PMC6943751 (The Journal of infectious diseases, 2014)

Biological target: Neuraminidase (NA) of A/Washington/01/2007, NA-WT (Influenza A virus, UniProt A7UPN3)
Assay: biochemical

CCOC(=O)C1=C[C@@H](OC(CC)CC)[C@H](NC(C)=O)[C@@H](N)C1 [Oseltamivir, oseltamivir]
IC50: 0.07 ± 0.02 nM
